Anti-infective test results gathered from many reports (values: NIAID ChemDB through PubChem).

Shared fields: whole-cell or culture tests; organism: HIV-1; read by: syncytia; measure: EC50

Blank or dashed fields: not listed here. ECn is the concentration giving n% inhibition of infection, replication or growth. Lines come from different laboratories, so protocols vary.

smiles | strain or isolate | cell line | changes | result
CCCC1=C(C(=O)Nc2ccc(Cl)c(C(=O)OCC)c2)SCCO1 | TIBO-resistant (RT L100I) | CEM | RT-L100I | 0.55 µg/mL
Cc1ccsc1C(=S)Nc1ccc(Cl)c(C(=O)OC2CCCCC2)c1 | IIIB | CEM | - | 0.225 µM
C=C(Cl)COc1cc(NC(=S)c2ccsc2C)ccc1C#N | Nevirapine-resistant isolate (RT V106A) | CEM | RT-V106A | 0.2 µg/mL
CC(C)c1c(Sc2ccccc2)n(COCc2ccccc2)c(=O)[nH]c1=O | IIIB | CEM | RT-Y181C | 0.3 µM
CC(C)=CCOc1cc(NC(=S)c2ccoc2C)ccc1Cl | IIIB | CEM | RT-E103K | 0.007 µg/mL
CC(C)OC(=O)c1cc(NC(=S)c2cccs2)ccc1Cl | - | CEM | RT-Y181C | 0.756 µM
Cc1ccc(C)c(C(C)S(=O)(=O)c2c(C)ccc[n+]2[O-])c1 | IIIB | CEM | RT-L100I | 4.6 µg/mL
CCCCOC(=O)c1cc(NC(=O)C2=C(C)OCCS2)ccc1Cl | PYR-resistant (RT Y181C) | CEM | RT-Y181C | 0.7 µg/mL
Cc1ccsc1C(=S)Nc1ccc(Cl)c(C(=O)OC(C)C)c1 | - | CEM | RT-Y181C | 1.6 µM
CC(C)OC(=O)c1cc(NC(=S)OCC2(C)COC2)ccc1Cl | - | CEM | RT-Y181C | >29.94 µM
CCOCn1c(Sc2ccccc2)c(CC)c(=O)[nH]c1=S | IIIB | CEM | RT-Y181C | 1.5 µM
CC1=C(C(=O)Nc2ccc(Cl)c(C(=O)OC3CCCCC3)c2)SCCO1 | Nevirapine-resistant (RT V106A) | CEM | RT-V106A | 5 µg/mL
C/C=C/COc1cc(NC(=S)c2ccoc2C)ccc1Cl | IIIB | CEM | - | 0.02 µM
CCc1c(Sc2cc(C)cc(C)c2)n(COCCO)c(=S)[nH]c1=O | IIIB (TIBO 82150) (RT-L100I) | CEM | RT-L100I | 0.03 µM
CC1=C(C(=O)Nc2ccc(Cl)c(C(=O)OC(C)C)c2)SCCO1 | IIIB | CEM | RT-E138K | >61 µM
Cc1ccc(C)c(CSc2c(Cl)ccc[n+]2[O-])c1 | IIIB | CEM | RT-K103N | 4.8 µg/mL
CCOCn1c(Cc2cc(C)cc(C)c2)c(CC)c(=O)[nH]c1=O | IIIB | CEM | RT-Y188H | 1 µM
CCOC(=O)COc1cc(NC(=S)OC(C)C)ccc1Cl | IIIB | CEM | - | 1.175 µM
COc1ccc(NC(=S)c2ccsc2C)cc1OCC=C(Cl)Cl | TIBO R82150-resistant (RT L100I) | CEM | RT-L100I | 0.09 µg/mL
CCOC(=O)c1cc(NC(=S)OC(C)C)ccc1SC | - | CEM | RT-L100I | 11.17 µM
Cc1occc1C(=S)Nc1ccc(Cl)c(/C=N/OC(C)(C)C)c1 | IIIB | CEM | RT-Y181C | 0.214 µM
C=CCOc1cc(NC(=S)c2sccc2C)ccc1OC | - | CEM | RT-L100I | 15 µM
CC(C)=CCOc1cc(NC(=S)c2ccoc2C)ccc1Cl | IIIB | CEM | RT-K103N | 0.069 µM
CC(C)OC(=S)Nc1ccc(Cl)c(C(=O)OCC[Si](C)(C)C)c1 | - | CEM | RT-L100I | 6.685 µM
Cc1occc1C(=S)Nc1ccc(Cl)c(/C=N/OCc2ccccc2)c1 | IIIB | CEM | - | 1 µM
CCCOC(=O)c1ccc(C)c(NC(=O)C2=C(C)OCCS2)c1 | TIBO-resistant (RT L100I) | CEM | RT-L100I | >10 µg/mL
CC(C)OC(=O)Nc1ccc(Cl)c(C(=O)OC(C)C)c1 | - | CEM | RT-Y181C | >33.36 µM
Cc1ccsc1C(=S)Nc1ccc(Cl)c(/C=N/OC(C)(C)C)c1 | - | CEM | RT-V106A | 0.54 µM
Cc1occc1C(=O)Nc1ccc(Cl)c(SCC=C(Cl)Cl)c1 | TIBO R82150-resistant (RT L100I) | CEM | RT-L100I | 0.93 µg/mL
Cc1occc1C(=S)Nc1ccc(Cl)c(OC(=O)OC(C)C)c1 | - | CEM | RT-E138K | 1.8 µM
CCOCn1c(Sc2cc(C)cc(C)c2)c(CC)c(=O)[nH]c1=S | IIIB (TIBO 82150) (RT-L100I) | CEM | RT-L100I | 0.01 µM
COc1ccccc1C(=S)Nc1ccc(Cl)c(C(=O)OC(C)C)c1 | - | CEM | RT-E138K | 5.3 µM
CC1=C(C(=O)Nc2ccc(Cl)c(OCC=C(Cl)Cl)c2)SCCO1 | HEPT-resistant (RT Y188H) | CEM | RT-Y188H | 2 µg/mL
C/C=C\COc1cc(NC(=S)OC(C)C)ccc1Cl | - | CEM | RT-V106A | 2 µM
Cc1occc1C(=S)Nc1ccc(Cl)c(/C=N/OCc2ccccc2)c1 | - | CEM | RT-V106A | 1.6 µM
CC1=C(C(=O)Nc2ccc(Cl)c(C(=O)OC(C)C)c2)SCCO1 | Nevirapine-resistant (RT V106A) | CEM | RT-V106A | >20 µg/mL
Cc1ccc(C)c(CS(=O)(=O)c2cccc[n+]2[O-])c1 | MN | CEM | - | 10 µg/mL
Cc1occc1C(=S)Nc1ccc(Cl)c(C(=O)OC2CCCCC2)c1 | IIIB | CEM | - | 0.01 µM
CC(C)OC(=S)Nc1ccc(Cl)c(C(=O)OC(C(C)C)C(C)C)c1 | - | CEM | RT-Y181C | >2.689 µM
CCOCn1c(Cc2ccccc2)c(CC)c(=O)[nH]c1=O | IIIB (TIBO 82150) (RT-L100I) | CEM | RT-L100I | 0.08 µM
O=S(=O)(Cc1ccccc1I)c1cccc[n+]1[O-] | IIIB | CEM/MOLT-4 + CEM | - | >20 µg/mL
CO/N=C/c1cc(NC(=S)OC(C)C)ccc1Cl | - | CEM | RT-Y181C | 17.43 µM
CCCCCCCCCC[N+](C)(C)CCCNCc1c(O)cc2c(c1O)-c1cc(ccc1O)[C@H]1NC(=O)[C@@H]3NC(=O)C4NC(=O)[C@@H](Cc5ccc(c(Cl)c5)Oc5cc3cc(c5O)Oc3ccc(cc3Cl)[C@@H](O)[C@H](NC1=O)C(=O)N[C@@H]2C(=O)O)NC(=O)[C@H](N)c1ccc(O)c(c1)Oc1cc(O)cc4c1 | IIIB | C8166 | - | 6.6 µM
Cc1cc(C)c(CS(=O)c2cccc[n+]2[O-])c(C)c1 | HE | CEM | - | 5.8 µg/mL
CC(C)OC(=S)Nc1ccc(Cl)c(C(=O)OCC(F)(F)F)c1 | - | CEM | RT-E138K | 19.68 µM
C/C(Cl)=C/COc1cc(NC(=O)c2ccoc2C)ccc1Cl | HEPT-resistant (RT Y188H) | CEM | RT-Y188H | 10 µg/mL
C=CCOC(=O)c1cc(NC(=S)OC(C)C)ccc1Cl | - | CEM | RT-L100I | 2.231 µM
CC1=C(C(=O)Nc2ccc(C)c(C(=O)OC(C)C)c2)SCCO1 | IIIB | CEM | - | 0.45 µg/mL
CCOCn1c(Cc2ccccc2)c(C(C)C)c(=O)[nH]c1=O | IIIB (TIBO 82150) (RT-L100I) | CEM | RT-L100I | 0.02 µM
CC1=C(C(=S)Nc2ccc(Cl)c(C=NOC(C)(C)C)c2)CCCO1 | - | CEM | RT-Y188L | 2.7 µM
O=[N+]([O-])c1ccc[n+]([O-])c1SCc1ccccc1 | IIIB | CEM | RT-E103K | ≥20 µg/mL
CC(C)OC(=O)c1cc(NC(=S)c2ccsc2)ccc1Cl | - | CEM | RT-L100I | 13 µM
COc1ccc(NC(=O)c2ccoc2C)cc1OCC=C(Cl)Cl | IIIB | CEM | - | 0.25 µg/mL
CC[C@H](C)OC(=S)Nc1ccc(Cl)c(C(=O)OC(C)C)c1 | - | CEM | RT-E138K | 0.212 µM
CC(C)=CCOc1cc(NC(=S)c2ccsc2C)ccc1Cl | - | CEM | RT-E138K | 0.017 µM
C/C=C/COc1cc(NC(=S)OC(C)C)ccc1Cl | - | CEM | RT-E138K | 0.3335 µM
C=C(C)[C@@H]1CC[C@]2(C(=O)NCCCCCCCC(=O)N[C@@H](CC(C)C)[C@@H](O)CC(=O)O)CC[C@]3(C)[C@H](CC[C@@H]4[C@@]5(C)CC[C@H](O)C(C)(C)[C@@H]5CC[C@]43C)[C@@H]12 | LAI | HeLa P4 + HeLa | I84S | >10 µM
Cc1ccsc1C(=O)Nc1ccc(Cl)c(C(=O)OC2CCCCC2)c1 | - | CEM | RT-E138K | 16 µM
CC(C)OC(=O)c1cc(NC(=S)OC(C)(C)C)ccc1Cl | - | CEM | RT-V106A | 2.577 µM
Cc1ccc(C)c(C(Cl)S(=O)(=O)c2cc(C)cc[n+]2[O-])c1 | IIIB | CEM | RT-E103K | >4 µg/mL
Cc1occc1C(=S)Nc1ccc(Cl)c(SCC=C(Cl)Cl)c1 | TIBO R82150-resistant (RT L100I) | CEM | RT-L100I | 0.023 µg/mL
CSC(=Nc1ccc(Cl)c(C(=O)OC(C)C)c1)OC(C)C | IIIB | CEM | - | >30.13 µM
Cc1ccc(C)c(CS(=O)(=O)c2cccc[n+]2[O-])c1 | HE | CEM | - | 11 µg/mL
C#CCOC(=O)c1cc(NC(=S)OC(C)C)ccc1Cl | IIIB | CEM | - | 0.93 µM
Cc1cc(C)cc(Sc2c(C(C)C)c(=O)[nH]c(=S)n2COCCO)c1 | IIIB | CEM | Nevirapine resistant (RT Y181C) | 0.34 µM
Cn1cccc1C(=S)Nc1ccc(Cl)c(/C=N/OC(C)(C)C)c1 | IIIB | CEM | - | 0.081 µM
CCc1c(Sc2cc(C)cc(C)c2)n(COCc2ccccc2)c(=S)[nH]c1=O | IIIB TIBO R82913-resistant (RT K103N) | CEM | RT-K103N | 0.11 µM
CN1N=C(N)c2cn([C@@H]3O[C@H](COP(=O)(O)O)[C@@H](O)[C@H]3O)c3ncnc1c23 | G-762 | CEM + CEM-SS | - | 0.035 µM
C#CCOc1cc(NC(=S)OC(C)C)ccc1Cl | - | CEM | RT-E138K | 2.467 µM
CO/N=C/c1cc(NC(=S)c2ccoc2C)ccc1OC | - | CEM | RT-K103N | 3.9 µM
CC(C)OC(=O)c1cc(NC(=S)SC(C)C)ccc1Cl | - | CEM | RT-E138K | >30.13 µM
C=C(Cl)COc1cc(NC(=S)c2ccoc2C)ccc1C | IIIB | CEM | - | 0.09 µg/mL
CCC(C)OC(=S)Nc1ccc(Cl)c(C(=O)OC(C)(C)C)c1 | - | CEM | RT-V106A | 1.018 µM
COCC1=C(C(=O)Nc2ccc(Cl)c(C(=O)OC(C)C)c2)SCCO1 | Nevirapine-resistant (RT V106A) | CEM | RT-V106A | 10 µg/mL
Cc1ccoc1C(=S)Nc1ccc(Cl)c(C(=O)OC(C)C)c1 | - | CEM | RT-L100I | 16 µM
CCCCCCCCCC[N+](C)(C)CCCNCc1c(O)cc2c(c1O)-c1cc(ccc1O)[C@H]1NC(=O)[C@@H]3NC(=O)C4NC(=O)[C@@H](Cc5ccc(c(Cl)c5)Oc5cc3cc(c5O)Oc3ccc(cc3Cl)[C@@H](O)[C@H](NC1=O)C(=O)N[C@@H]2C(=O)O)NC(=O)[C@H](N)c1ccc(O)c(c1)Oc1cc(O)cc4c1 | - | CEM | RT-L100I | 5.3 µM
CC1=C(C(=O)Nc2cc(C(=O)OC(C)C)c(Cl)cc2F)SCCO1 | TIBO-resistant (RT L100I) | CEM | RT-L100I | >10 µg/mL
CCC(CC)OC(=O)c1cc(NC(=S)c2ccoc2C)ccc1Cl | - | CEM | RT-E138K | 0.437 µM
CC1=C(C(=O)Nc2ccc(Cl)c(C(=O)OCC3CCC3)c2)SCCO1 | IIIB | CEM | - | 0.085 µg/mL
Cc1occc1C(=S)Nc1ccc(Cl)c(/C=N/OC(C)(C)C)c1 | IIIB | CEM | RT-V179D | 0.48 µM

Repeating the final 11 entries:

smiles | strain or isolate | cell line | changes | result
CO/N=C/c1cc(NC(=S)c2ccoc2C)ccc1OC | - | CEM | RT-K103N | 3.9 µM
CC(C)OC(=O)c1cc(NC(=S)SC(C)C)ccc1Cl | - | CEM | RT-E138K | >30.13 µM
C=C(Cl)COc1cc(NC(=S)c2ccoc2C)ccc1C | IIIB | CEM | - | 0.09 µg/mL
CCC(C)OC(=S)Nc1ccc(Cl)c(C(=O)OC(C)(C)C)c1 | - | CEM | RT-V106A | 1.018 µM
COCC1=C(C(=O)Nc2ccc(Cl)c(C(=O)OC(C)C)c2)SCCO1 | Nevirapine-resistant (RT V106A) | CEM | RT-V106A | 10 µg/mL
Cc1ccoc1C(=S)Nc1ccc(Cl)c(C(=O)OC(C)C)c1 | - | CEM | RT-L100I | 16 µM
CCCCCCCCCC[N+](C)(C)CCCNCc1c(O)cc2c(c1O)-c1cc(ccc1O)[C@H]1NC(=O)[C@@H]3NC(=O)C4NC(=O)[C@@H](Cc5ccc(c(Cl)c5)Oc5cc3cc(c5O)Oc3ccc(cc3Cl)[C@@H](O)[C@H](NC1=O)C(=O)N[C@@H]2C(=O)O)NC(=O)[C@H](N)c1ccc(O)c(c1)Oc1cc(O)cc4c1 | - | CEM | RT-L100I | 5.3 µM
CC1=C(C(=O)Nc2cc(C(=O)OC(C)C)c(Cl)cc2F)SCCO1 | TIBO-resistant (RT L100I) | CEM | RT-L100I | >10 µg/mL
CCC(CC)OC(=O)c1cc(NC(=S)c2ccoc2C)ccc1Cl | - | CEM | RT-E138K | 0.437 µM
CC1=C(C(=O)Nc2ccc(Cl)c(C(=O)OCC3CCC3)c2)SCCO1 | IIIB | CEM | - | 0.085 µg/mL
Cc1occc1C(=S)Nc1ccc(Cl)c(/C=N/OC(C)(C)C)c1 | IIIB | CEM | RT-V179D | 0.48 µM